{"source": "PubChem BioAssay AID624099 | ICCB-Longwood, 2012", "assay": "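Human genes that papillomavirus E2 requires to repress the HPV18 LCR promoter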 (primary screen)", "cell system": "human C33A cervical carcinoma cells (HPV-negative) stably expressing BPV1 E2 and an HPV18 LCR luciferase reporter", "reagents": "siRNA pool against human genes, 40 nM", "duration": "72 h", "read-out": "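Per-well luciferase luminescence, z-scored on each plate against the plate mean and SD with control wells left out, then averaged across three replicate plates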", "reading the numbers": "mean z-score and z-score: higher = stronger reporter signal, weaker E2 silencing", "active means": "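Hit if mean z-score reaches 2 and two or more of three replicate z-scores also reach 2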", "note": "The deposit covers about 21,000 reagents; this is a part drawn at random. Of all reagents, 497 (2.4%) were called active. 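Higher z means weaker E2 silencing; only reporter increases were scored, and knock-downs that hurt cell survival may mask genuine repressor factors.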 Reagent sequences are not shown."}
{"gene": "RPL28 (GeneID 6158)", "mean z-score": -0.18, "z-score, replicate A": -0.32, "z-score, replicate B": -0.06, "z-score, replicate C": -0.14, "Call": "inactive"}
{"gene": "ZNF525 (GeneID 170958)", "mean z-score": -0.99, "z-score, replicate A": -1.26, "z-score, replicate B": -0.83, "z-score, replicate C": -0.87, "Call": "inactive"}
{"gene": "IL1RAPL1 (GeneID 11141)", "mean z-score": -0.03, "z-score, replicate A": 0.22, "z-score, replicate B": -0.24, "z-score, replicate C": -0.05, "Call": "inactive"}
{"gene": "SLC25A25 (GeneID 114789)", "mean z-score": -0.38, "z-score, replicate A": -0.69, "z-score, replicate B": -0.34, "z-score, replicate C": -0.1, "Call": "inactive"}
{"gene": "MAP7 (GeneID 9053)", "mean z-score": 0.17, "z-score, replicate A": -0.04, "z-score, replicate B": 0.13, "z-score, replicate C": 0.41, "Call": "inactive"}
{"gene": "COX17 (GeneID 10063)", "mean z-score": 0.48, "z-score, replicate A": 0.47, "z-score, replicate B": 0.38, "z-score, replicate C": 0.6, "Call": "inactive"}
{"gene": "SLC19A3 (GeneID 80704)", "mean z-score": 0.09, "z-score, replicate A": 0.05, "z-score, replicate B": 0, "z-score, replicate C": 0.22, "Call": "inactive"}
{"gene": "ADRA1D (GeneID 146)", "mean z-score": 0.17, "z-score, replicate A": 0.15, "z-score, replicate B": 0.24, "z-score, replicate C": 0.13, "Call": "inactive"}
{"gene": "EEF1D (GeneID 1936)", "mean z-score": -1.53, "z-score, replicate A": -1.38, "z-score, replicate B": -1.43, "z-score, replicate C": -1.78, "Call": "inactive"}
{"gene": "SREBF2 (GeneID 6721)", "mean z-score": 0.23, "z-score, replicate A": 0.11, "z-score, replicate B": 0.37, "z-score, replicate C": 0.22, "Call": "inactive"}
{"gene": "LINC02899 (GeneID 439936)", "mean z-score": 0.49, "z-score, replicate A": 0.8, "z-score, replicate B": 0.46, "z-score, replicate C": 0.22, "Call": "inactive"}
{"gene": "CIMIP4 (GeneID 339669)", "mean z-score": -0.71, "z-score, replicate A": -0.56, "z-score, replicate B": -0.93, "z-score, replicate C": -0.65, "Call": "inactive"}
{"gene": "UBE2E3 (GeneID 10477)", "mean z-score": 0.42, "z-score, replicate A": 0.5, "z-score, replicate B": 0.25, "z-score, replicate C": 0.52, "Call": "inactive"}
{"gene": "LOC157278 (retired record) (GeneID 157278)", "mean z-score": -1.16, "z-score, replicate A": -1.19, "z-score, replicate B": -1.24, "z-score, replicate C": -1.04, "Call": "inactive"}
{"gene": "GOLGA2 (GeneID 2801)", "mean z-score": -0.09, "z-score, replicate A": -0.13, "z-score, replicate B": 0.01, "z-score, replicate C": -0.15, "Call": "inactive"}
{"gene": "AFG2A (GeneID 166378)", "mean z-score": -0.57, "z-score, replicate A": -0.92, "z-score, replicate B": -0.32, "z-score, replicate C": -0.48, "Call": "inactive"}
{"gene": "KRI1 (GeneID 65095)", "mean z-score": 0.42, "z-score, replicate A": 0.42, "z-score, replicate B": 0.55, "z-score, replicate C": 0.29, "Call": "inactive"}
{"gene": "LRRC23 (GeneID 10233)", "mean z-score": 3.87, "z-score, replicate A": 4.09, "z-score, replicate B": 4.11, "z-score, replicate C": 3.4, "Call": "active"}
{"gene": "ZBTB26 (GeneID 57684)", "mean z-score": 0.74, "z-score, replicate A": 0.83, "z-score, replicate B": 1.16, "z-score, replicate C": 0.23, "Call": "inactive"}
{"gene": "TFAP4 (GeneID 7023)", "mean z-score": 0.19, "z-score, replicate A": 0.14, "z-score, replicate B": 0.32, "z-score, replicate C": 0.11, "Call": "inactive"}
{"gene": "KIZ (GeneID 55857)", "mean z-score": -0.14, "z-score, replicate A": -0.77, "z-score, replicate B": 0.14, "z-score, replicate C": 0.2, "Call": "inactive"}
{"gene": "NPTN (GeneID 27020)", "mean z-score": 0.35, "z-score, replicate A": 0.42, "z-score, replicate B": 0.36, "z-score, replicate C": 0.27, "Call": "inactive"}
{"gene": "SIRT5 (GeneID 23408)", "mean z-score": -1.91, "z-score, replicate A": -1.6, "z-score, replicate B": -2.28, "z-score, replicate C": -1.85, "Call": "inactive"}
{"gene": "SIGIRR (GeneID 59307)", "mean z-score": -1.54, "z-score, replicate A": -1.77, "z-score, replicate B": -1.74, "z-score, replicate C": -1.11, "Call": "inactive"}
{"gene": "TRIM62 (GeneID 55223)", "mean z-score": -0.98, "z-score, replicate A": -1.03, "z-score, replicate B": -0.95, "z-score, replicate C": -0.97, "Call": "inactive"}
{"gene": "PKD1L1-AS1 (GeneID 80099)", "mean z-score": 1.04, "z-score, replicate A": 0.98, "z-score, replicate B": 1.01, "z-score, replicate C": 1.14, "Call": "inactive"}
{"gene": "DPH7 (GeneID 92715)", "mean z-score": -1.39, "z-score, replicate A": -1.78, "z-score, replicate B": -1.29, "z-score, replicate C": -1.11, "Call": "inactive"}

Not a retest: an excerpt of the list.
{"gene": "LRRC23 (GeneID 10233)", "mean z-score": 3.87, "z-score, replicate A": 4.09, "z-score, replicate B": 4.11, "z-score, replicate C": 3.4, "Call": "active"}
{"gene": "ZBTB26 (GeneID 57684)", "mean z-score": 0.74, "z-score, replicate A": 0.83, "z-score, replicate B": 1.16, "z-score, replicate C": 0.23, "Call": "inactive"}
{"gene": "TFAP4 (GeneID 7023)", "mean z-score": 0.19, "z-score, replicate A": 0.14, "z-score, replicate B": 0.32, "z-score, replicate C": 0.11, "Call": "inactive"}
{"gene": "KIZ (GeneID 55857)", "mean z-score": -0.14, "z-score, replicate A": -0.77, "z-score, replicate B": 0.14, "z-score, replicate C": 0.2, "Call": "inactive"}
{"gene": "NPTN (GeneID 27020)", "mean z-score": 0.35, "z-score, replicate A": 0.42, "z-score, replicate B": 0.36, "z-score, replicate C": 0.27, "Call": "inactive"}
